Measured values from patent US4835162A (priority 1987, dated 1989).

System: rats
Experiment: Blockade of nicotine-induced prostration, intraventricular (Example 2)
Type: in vivo, Sprague-Dawley male rats
Settings: i.v.c. 1 min. prior to 2 nmoles nicotine; dose producing 50% efficacy

CNC(=O)OC1CN2CCC1CC2 (stereo not shown)
Blockade of (nicotine-induced prostration) EC50: 100 nmol
